System: adalimumab-producing CHO cell line
Experiment: Example 1 culture growth & productivity, batch shake flasks
Type: cell-based, Chinese Hamster
Conditions: manganese chloride 100 μM, galactose 0 to 100 mM
Experimental: All supernatants were stored at −80° C. until analysis. […] Culture growth, productivity, and product quality data for control cultures is the average of the 3 experiments.

Manganese (II) Chloride [manganese chloride]
culture growth and viability: growth lag and decreased viability for the first 4 production days

Reference: US9505834B2, “Methods for controlling the galactosylation profile of recombinantly-expressed proteins” (AbbVie Inc., priority 2011, dated 2016)
